Compound potency records, mixed from different reports. Data source: NIAID ChemDB in PubChem.

Common to all: enzyme or target tests; agent: Varicella zoster virus

ICn: concentration for n% inhibition.

{"compound": "CN1CCN(n2cc(C(=O)NCc3ccc(Cl)cc3)c(=O)c3cc(CN4CCOCC4)ccc32)CC1", "measure": "IC50", "protein": "DNA polymerase", "result": "0.34 µM"}
{"compound": "Cc1cn([C@@H]2O[C@H](CO)[C@@H](O)[C@@H]2O)c(=O)[nH]c1=O", "measure": "IC50", "protein": "Thymidylate synthetase", "strain": "Kanno-Kohmura (TK-)", "result": ">100 µM"}
{"compound": "C[C@@H](O)Cn1cnc2c(=S)nc(N)[nH]c21", "measure": "Ki", "protein": "Thymidine kinase", "result": "300 µM"}
{"compound": "Nc1ncnc2c1ncn2C[C@@H](CO)OCP(=O)(O)O", "measure": "IC50", "protein": "Thymidylate synthetase", "strain": "KANNO (TK+)", "result": ">100 µM"}
{"compound": "COc1ncnc2c1ncn2[C@@H]1O[C@H](CO)[C@@H](O)[C@@H]1O", "measure": "Ki", "protein": "Thymidine kinase", "strain": "OKA", "result": "200 µM"}
{"compound": "Nn1cc(C(=O)NCc2ccc(Cl)cc2)c(=O)c2cc(CCCO)ccc21", "measure": "IC50", "protein": "DNA polymerase", "result": "0.15 µM"}
{"compound": "CCOc1ncnc2c1ncn2[C@@H]1O[C@H](CO)[C@@H](O)[C@@H]1O", "measure": "Ki", "protein": "Thymidine kinase", "strain": "OKA", "result": "870 µM"}
{"compound": "O=c1[nH]c(=O)n([C@H]2CO[C@@H](CO)O2)cc1/C=C/Br", "measure": "Ki", "protein": "Thymidine kinase", "result": "78 µM"}
{"compound": "O=c1[nH]c(=O)n([C@@H]2O[C@H](CO)[C@@H](O)[C@@H]2O)cc1/C=C/Br", "measure": "IC50", "protein": "Thymidylate synthetase", "strain": "Kanno-Kohmura (TK-)", "result": ">100 µM"}
{"compound": "O=C(NCc1ccc(Cl)cc1)c1cn(N2CCOCC2)c2ccc(CC3CCOCC3)cc2c1=O", "measure": "IC50", "protein": "DNA polymerase", "result": "0.1 µM"}
{"compound": "C[C@@H](O)Cn1cnc2c(Cl)ncnc21", "measure": "Ki", "protein": "Thymidine kinase", "result": "2700 µM"}
{"compound": "Nc1ccn([C@@H]2O[C@H](CO)[C@@H](O)[C@@H]2O)c(=O)n1", "measure": "IC50", "protein": "Thymidylate synthetase", "strain": "Kanno-Kohmura (TK-)", "result": ">100 µM"}
{"compound": "CN(C)n1cc(C(=O)NCc2ccc(Cl)cc2)c(=O)c2cc(CN3CCOCC3)ccc21", "measure": "IC50", "protein": "DNA polymerase", "result": "0.58 µM"}
{"compound": "Cn1cc(C(=O)NCc2ccc(Cl)cc2)c(=O)c2cc(/C=C\\CO)cc(F)c21", "measure": "IC50", "protein": "DNA polymerase", "strain": "TYPE 2", "result": "0.39 µM"}
{"compound": "C[C@@H](O)Cn1cnc2c(=O)[nH]cnc21", "measure": "Ki", "protein": "Thymidine kinase", "result": "2600 µM"}
{"compound": "Nc1nc2c(ncn2CC(CCO)COP(=O)(O)OP(=O)(O)OP(=O)(O)O)c(=O)[nH]1", "measure": "IC50", "protein": "DNA polymerase", "result": "0.1 µM"}
{"compound": "Nc1ncnc2c1ncn2[C@H]1CC[C@@H](CO)O1", "measure": "IC50", "protein": "Thymidylate synthetase", "strain": "Kanno-Kohmura (TK-)", "result": ">100 µM"}
{"compound": "CN(C)n1cc(C(=O)NCc2ccc(Cl)cc2)c(=O)c2cc(C#CCO)ccc21", "measure": "IC50", "protein": "DNA polymerase", "result": "0.53 µM"}

For reference, 2 entries again:

{"compound": "O=C(NCc1ccc(Cl)cc1)c1cn(N2CCOCC2)c2ccc(CC3CCOCC3)cc2c1=O", "measure": "IC50", "protein": "DNA polymerase", "result": "0.1 µM"}
{"compound": "Cn1cc(C(=O)NCc2ccc(Cl)cc2)c(=O)c2cc(/C=C\\CO)cc(F)c21", "measure": "IC50", "protein": "DNA polymerase", "strain": "TYPE 2", "result": "0.39 µM"}

Conditions beyond the fields shown may differ between rows.